What follows are compounds tested on HCV Replicon GT-1b (assay: microbe, parasite or virus in culture). Settings: Hepatitis C virus, GT1B, read-out: HCV Replicon Assay EC50 uM.

| SMILES | EC50 |
| --- | --- |
| C[C@@]1(O)C(O)[C@@H](CO)O[C@H]1n1ccc(=O)[nH]c1=S (some centres unmarked) [ENUC-01850-1] | > 100 µM |
| O=c1ccn([C@@H]2O[C@H](CO)C(O)[C@@H]2O)c(=S)[nH]1 (some centres unmarked) [ENUC-01894-2] | > 100 µM |
| C[C@@]1(O)C(O)[C@@H](CO)O[C@H]1n1ccc(=S)[nH]c1=O (some centres unmarked) [ENUC-01916-1] | > 100 µM |
| CC(C)OC(=O)[C@H](C)NP(=O)(OC[C@H]1O[C@@H](n2ccc(=S)[nH]c2=O)[C@](C)(F)C1O)Oc1ccccc1 (some centres unmarked) [ENUC-01943-1] | > 100 µM |
| C[C@@]1(F)C(O)[C@@H](CO)O[C@H]1n1ccc(=S)[nH]c1=O (some centres unmarked) [ENUC-01946-1] | > 100 µM |
| C[C@H](NP(=O)(O)OC[C@H]1O[C@@H](n2ccc(=O)[nH]c2=S)[C@](C)(O)C1O)C(=O)O (some centres unmarked) [ENUC-01997-1] | > 100 µM |
| CC(C)OC(=O)[C@H](C)NP(=O)(OC[C@H]1O[C@@H](n2ccc(=S)[nH]c2=O)[C@@H](O)C1O)Oc1ccccc1 (some centres unmarked) [ENUC-02071-1] | > 100 µM |
| CC(C)OC(=O)[C@H](C)NP(=O)(OC[C@@]1(N=[N+]=[N-])O[C@@H](n2ccc(=S)[nH]c2=O)[C@@H](O)C1O)Oc1ccccc1 (some centres unmarked) [ENUC-02083-1] | > 100 µM |
